One assay deals with SARS-CoV-2 3CL-protease (Severe acute respiratory syndrome coronavirus 2 (2019-nCoV) (SARS-CoV-2), UniProt P0DTD1). Put plainly: SARS-CoV-2 3C-Like (3CL) Protease Fluorescence Assay (FRET). The conditions noted are these: recombinant SARS-CoV-2 3CL-protease 10 nM, FRET peptide substrate, 30 min preincubation at RT, duplicate; ranges defined in μM. The protocol: Biological Activity SARS-CoV-2 3C-Like (3CL) Protease Fluorescence Assay (FRET):
Recombinant SARS-CoV-2 3CL-protease was expressed and purified. TAMIRA-SITSAVLQSGFRKMK-Dabcyl-OH peptide 3CLpro substrate was synthesized. Black, low volume, round-bottom, 384 well microplates were used. In a typical assay, 0.85 μL of test compound was dissolved in DMSO then incubated with SARS-CoV-2 3CL-protease (10 nM) in 10 μL assay buffer (50 mM HEPES [pH 7.5], 1 mM DTT, 0.0100 BSA, 0.01% Triton-X 100) for 30 min at RT. Next, 10 μL of 3CL-protease substrate (40 μM) in assay buffer was added and the assays were monitored continuously for 1 h in an Envision multimode plate reader operating in fluorescence kinetics mode with excitation at 540 nm and emission at 580 nm at RT. No compound (DMSO only) and no enzyme controls were routinely included in each plate. All experiments were run in duplicate. Data Analysis: SARS-CoV-2 3CL-protease enzyme activity was measured as initial velocity of the linear phase (RFU/s) and normalized to controlled samples DMSO (10000 activity) and no enzyme (000 activity) to determine percent residual activity at various concentrations of test compounds (0-10 μM). Data were fitted to normalized activity (variable slope) versus concentration fit in GraphPad Prism 7 to determine IC50. […]

The subject of assay [1] is 229E human corona virus (hCoV). Put plainly: 229E Live Virus Assay (MRC-5 cells, CPE, ATPlite readout). The conditions noted are these: read-out: 229E EC50, hCoV-229E MOI 0.05, 6 days at 34° C., duplicate, ranges defined in μM. The protocol: MRC-5 cells, (a diploid cell culture line composed of fibroblasts, originally developed from the lung tissue of a aborted fetus), were used for the culturing of 229E human corona virus (hCoV). Flasks were inoculated with hCoV-229E and viral stocks were collected once cytopathic effect (CPE) was greater than 70%. Viral stocks in Growth Media (EMEM, 1% Penn/Strep, 1% nonessential amino acids, 10% heat-inactivated FBS) plus 5% glycerol were snap frozen using liquid nitrogen and stored at −80° C. Viral stock titers were quantified by a TCID50 (50% median tissue culture infectious dose) assay, as described elsewhere.
384-well black cell-culture-treated plastic clear-bottom plates are used in this assay. Using an ECHO liquid dispenser, 3-fold serial dilutions of control and test compounds suspended in DMSO are added to the plate wells in duplicate in a total volume of 125 nL per well. […] The control wells with cells but no virus are given an additional 12.5 μL of growth media containing an equal quantity of glycerol as those wells receiving the viral stock in order to keep consistent in media and volume conditions. […] Following the 6-day incubation period, the plates are read using ATPlite (12.5 μL added per well), which quantifies the amount of ATP (a measure of cell health) present in each well. Assay plates are read using an Envision luminometer. […]
Background: Cellular ATP, detected with luciferase, serves as a proxy for viable cell number.

In the case of `CC(C)C[C@@H](C(=O)N1C[C@]2(C[C@H]1C#N)C(=O)Nc1ccccc12)N(C)C(=O)[C@H](CC(C)(C)C)N(C)C(=O)c1cc2c(F)cc(F)c(F)c2[nH]1`, the IC50 at SARS-CoV-2 3CL-protease was < 0.1 µM. Moreover, the EC50 in assay [1] is 0.1 to 1 µM.

In general, IC50 refers to the concentration at which inhibition is half-maximal. Broadly, the EC50 is the concentration needed to bring the measured effect to its halfway point.
